Experimental data: the supplement of paper PMC9931576
Human monoclonal antibodies against the spike receptor-binding domain (heavy:light variable regions). IC50 against pseudoviruses bearing the spike of naturally observed variants; lower = stronger; >10 µg/ml means not reached at the top dose. No active / inactive call. The stated detection limit is 0.0005 µg/ml; values near or below 0.001 µg/ml lie at the floor of the assay.

Legend:
Experiment in all cases: pseudovirus neutralization IC50; higher = weaker neutralization
[1] = target: SARS-CoV-2 Omicron BA.1 spike pseudovirus
Method: (§1)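 Single-round VSV luciferase pseudovirus mixed with antibody dilutions for 1 h and put on Huh-7 cells for about a day; IC50 from the dose curve.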

[2] = target: SARS-CoV-2 Omicron BA.2 spike pseudovirus
Method: as §1

[3] = target: SARS-CoV-2 Omicron BA.2.75 spike pseudovirus
Method: as §1

[4] = target: SARS-CoV-2 Omicron BA.5 spike pseudovirus
Method: as §1

[5] = target: SARS-CoV-2 Omicron BQ.1.1 spike pseudovirus
Method: as §1

[6] = target: SARS-CoV-2 Omicron XBB spike pseudovirus
Method: as §1

[7] = target: SARS-CoV-2 early D614G spike pseudovirus
Method: as §1

B1: BD55-6472 (protein)
chain 1: QVLLVQSGAEVQKPGASVKVSCKASGYIFTSCDINWVRQAPGQGLEWMGWVSPASGDTGSAHKFQGRVTMTRDTSISTAFMELSSLRSEDTAVYFCAIALSSASQPRLFVDYYYGWDVWGQGTTVTVSS
chain 2: DIQMTQSPTSLSASVGDRVTITCRASLSIDNYVNWYQQKPGKAPRLLIYAASSLQSGVPSRFSGRGSGTDFTLTISSLQPEDFATYFCQQSYSTPPTFGGGTKVEIK
- pseudovirus neutralization IC50 [1]: > 10 µg/mL
- pseudovirus neutralization IC50 [2]: > 10 µg/mL
- pseudovirus neutralization IC50 [3]: > 10 µg/mL
- pseudovirus neutralization IC50 [4]: > 10 µg/mL
- pseudovirus neutralization IC50 [5]: > 10 µg/mL
- pseudovirus neutralization IC50 [6]: > 10 µg/mL
- pseudovirus neutralization IC50 [7]: > 10 µg/mL

B2: BD55-6465 (protein)
chain 1: QVQLVQSGAEVKKPGASVKVSCKASGYTFINYDINWVRQATGQGLEWMGWMNPNSGSTGYAHNFQGRVTMTRNTSIATAYMELSSLRSEDTAVYYCARGLPYSHSSGYGASDHWGQGALVTVSS
chain 2: DLQMTQSPSSLSASVGARVTLTCRASQSISTYLNWYQQKPGTAPKLLIYGASSLQSGVPSRFSGSGSGTDFTLTISSLQPEDFATYYCQQSYSTPYSFGQGTKLEIK
- pseudovirus neutralization IC50 [1]: > 10 µg/mL
- pseudovirus neutralization IC50 [2]: > 10 µg/mL
- pseudovirus neutralization IC50 [3]: > 10 µg/mL
- pseudovirus neutralization IC50 [4]: > 10 µg/mL
- pseudovirus neutralization IC50 [5]: > 10 µg/mL
- pseudovirus neutralization IC50 [6]: > 10 µg/mL
- pseudovirus neutralization IC50 [7]: > 10 µg/mL

B3: BD55-6468 (protein)
chain 1: QVQLVQSGSELKKPGASLKVSCKASGYSFSSYAMHWVRQAPGQGLEWMGWINPNTGIPTYGQAFTGRFVFSLDTSVSTAFLQISSLEAEDTAVYYCARSRSTWPFSDPFDIWGQGTMVTVSS
chain 2: IVMTQSPATLSVSPGERASLSCRAGQSVSNNLAWYQQKPGQAPRLLIFGASTRATGVPARFSGSGSGTDFTLTISSLQSEDFAVYYCQQYNYWPLTFGGGTKVEIK
- pseudovirus neutralization IC50 [1]: > 10 µg/mL
- pseudovirus neutralization IC50 [2]: > 10 µg/mL
- pseudovirus neutralization IC50 [3]: > 10 µg/mL
- pseudovirus neutralization IC50 [4]: > 10 µg/mL
- pseudovirus neutralization IC50 [5]: > 10 µg/mL
- pseudovirus neutralization IC50 [6]: > 10 µg/mL
- pseudovirus neutralization IC50 [7]: 0.0133 µg/mL

B4: BD55-1245 (protein)
chain 1: QVQLVQSGSEFKKPGASVKVACKASGYTFSDYAINWVRQTPGQGLEWLGWINTNTGNPTYAQGFTGHFDFSLDTSLSTAYLQISSLKAEDAAVYYCARVWGAGIRYNYYGLDVWGQGTTVTVSS
chain 2: IVMTQSPLSLPVTLGEPASISCRSSQNLYHRSGYHYLDWYMQKPGQSPQLLIYLGSNRASGVPDRFSGSASGTDFTLTISRVEAEDVGVYYCMQALQTPPEYTFGQGTKLEIK
- pseudovirus neutralization IC50 [1]: > 10 µg/mL
- pseudovirus neutralization IC50 [2]: > 10 µg/mL
- pseudovirus neutralization IC50 [3]: > 10 µg/mL
- pseudovirus neutralization IC50 [4]: > 10 µg/mL
- pseudovirus neutralization IC50 [5]: > 10 µg/mL
- pseudovirus neutralization IC50 [6]: > 10 µg/mL
- pseudovirus neutralization IC50 [7]: 0.298 µg/mL

B5: BD55-6470 (protein)
chain 1: QVQLQESGPGLVRPSETLSLTCSVSGGSISSHYWSWIRQPPGKGLEWIGYIYYSGSTDYNPSLKSRVTISVDTSKKQFSLKLTSVTAADTAVYYCATVPGLPAAGTFYYYYGMDVWGQGTAVTVSS
chain 2: DIQMTQSPSSLSASVGDRVTITCRASQSISDFLNWYQQKPGKAPKLLIYGASSLQSGVPSRFTGSGSGTDFTLTISSLQPEDFATYYCQQSYTLFTFGPGTKVDF
- pseudovirus neutralization IC50 [1]: > 10 µg/mL
- pseudovirus neutralization IC50 [2]: > 10 µg/mL
- pseudovirus neutralization IC50 [3]: > 10 µg/mL
- pseudovirus neutralization IC50 [4]: > 10 µg/mL
- pseudovirus neutralization IC50 [5]: > 10 µg/mL
- pseudovirus neutralization IC50 [6]: > 10 µg/mL
- pseudovirus neutralization IC50 [7]: > 10 µg/mL

B6: BD55-6459 (protein)
chain 1: EVQLVESGGGLVKPGGTLTLACAASGFSFNTNGMNWVRQAPGKGLEWVASISSSRSFIFYADSVKGRFIISRDNSKNSLYLHMSSLRVEDTAVYYCTREWDHYDTRLDWGQGTLVTVSS
chain 2: QSVLTQPPSVSGTPGQRVTISCTGSSSNIGAGFAVHWYQQLPGTAPQLLFSHTDRPSGVPDRISGSRSGTSASLAITGLQAEDEADYYCQSFDSSLSVVVFGGGTKLTVL
- pseudovirus neutralization IC50 [1]: > 10 µg/mL
- pseudovirus neutralization IC50 [2]: > 10 µg/mL
- pseudovirus neutralization IC50 [3]: > 10 µg/mL
- pseudovirus neutralization IC50 [4]: > 10 µg/mL
- pseudovirus neutralization IC50 [5]: > 10 µg/mL
- pseudovirus neutralization IC50 [6]: > 10 µg/mL
- pseudovirus neutralization IC50 [7]: 0.62 µg/mL
